Results of unrelated studies side by side (data: NIAID ChemDB).

Shared fields: growth or infection tests; species: HIV-1

An empty or dashed field is not shown. ECn: concentration that inhibits the pathogen or its effect by n%. Neighbouring rows are from separate reports. Fold resistance: result on the changed form divided by that on wild type. a–b is a range or a potency band.

compound | strain | method | cell line | read-out | mutations | result
Cc1cc(S(N)(=O)=O)ccc1NC(=O)COc1ccc(Cl)cc1C(=O)c1cc(F)cc(F)c1 | HXB2 | β-galactosidase | HeLa + HELA CD4+ | fold resistance | RT-P225H | ~1
Cn1cc(CN2CCn3c(nc(C(=O)NCc4ccc(F)cc4)c(O)c3=O)C2(C)C)nn1 | - | p24 | MT-4 | EC95 | - | <1 µM
Cc1cc(C#N)cc(C(=O)c2cc(Cl)ccc2OCC(=O)Nc2ccc(OCCCN3CC=CC3)cc2C)c1 | HXB2 | β-galactosidase | HeLa + HELA CD4+ | fold resistance | RT-V106I | ~1
O=C1Nc2ccc(Cl)cc2[C@@](C#CC2CC2)(C(F)(F)F)N1 | - | - | - | fold resistance | RT-K103N | 5.26
CN1CCn2c(nc(C(=O)NCc3ccc(F)cc3)c(O)c2=O)C(N(C)S(C)(=O)=O)C1 | - | p24 | MT-4 | EC95 | - | <1 µM
Cc1cc(OCCCS(N)(=O)=O)ccc1NC(=O)COc1ccc(Cl)cc1C(=O)c1cc(F)cc(C(F)(F)F)c1 | HXB2 | β-galactosidase | HeLa + HELA CD4+ | fold resistance | RT-L100I | ~1
CN(C)CC1c2nc(C(=O)NCc3ccc(F)cc3)c(O)c(=O)n2CCN1Cc1ccn(C)n1 | - | p24 | MT-4 | EC95 | - | 1–10 µM
COc1ccc(S(=O)(=O)N(CC[C@@H](O)CN2CCCC[C@H]2C(=O)NC(C)(C)C)CC(C)C)cc1 | IIIB | p24 | CEM | EC90 | - | 1 µM
CC(C)C1=C2[C@H]3CC[C@@H]4[C@@]5(C)CC[C@H](OC(=O)[C@H]6C[C@@H](C(=O)O)C6(C)C)C(C)(C)[C@@H]5CC[C@@]4(C)[C@]3(C)CC[C@@]2(CC(=O)NCC(F)NC(=O)c2ccc(Cl)cc2)CC1=O | 92HT599 | p24 / ELISA | MT-2 | EC50 | - | <1 µM
CCc1cc(C#N)cc(C(=O)c2cc(Cl)ccc2OCC(=O)Nc2ccc(S(N)(=O)=O)cc2C)c1 | HXB2 | β-galactosidase | HeLa + HELA CD4+ | fold resistance | RT-V106A Y181C | ~1
CC(C)C1=C2[C@H]3CC[C@@H]4[C@@]5(C)CC[C@H](OC(=O)[C@H]6C[C@@H](C(=O)O)C6(C)C)C(C)(C)[C@@H]5CC[C@@]4(C)[C@]3(C)CC[C@@]2(CCNCc2ncc[nH]2)CC1=O | 92HT599 | p24 / ELISA | MT-2 | EC50 | - | <1 µM
O=C(NCc1ccc(F)cc1)c1nc2n(c(=O)c1O)CCN(Cc1cocn1)C21CC1 | - | p24 | MT-4 | EC95 | - | <1 µM
CC(C)C1=C2[C@H]3CC[C@@H]4[C@@]5(C)CC[C@H](OC(=O)[C@H]6C[C@@H](C(=O)O)C6(C)C)C(C)(C)[C@@H]5CC[C@@]4(C)[C@]3(C)CC[C@@]2([C@@H](O)CNC(=O)[C@H](CO)NC(=O)c2ccc(Cl)cc2)CC1=O | 92HT599 | p24 / ELISA | MT-2 | EC50 | - | <1 µM
Cc1cc(S(N)(=O)=O)ccc1NC(=O)COc1ccc(Cl)cc1C(=O)c1cccc(C#N)n1 | HXB2 | β-galactosidase | HeLa + HELA CD4+ | fold resistance | RT-V106I Y181C | ~1
CC(C)C1=C2[C@H]3CC[C@@H]4[C@@]5(C)CC[C@H](OC(=O)[C@H]6C[C@@H](C(=O)O)C6(C)C)C(C)(C)[C@@H]5CC[C@@]4(C)[C@]3(C)CC[C@@]2([C@@H](O)CNCc2ccc(Cl)cc2OCCN2CCOCC2)CC1=O | 92HT599 | p24 / ELISA | MT-2 | EC50 | - | <1 µM
CCC(=O)c1ccc(F)c([C@@H]2C[C@@H]2NC(=O)Nc2ccc(C#N)cn2)c1O | LAI | β-galactosidase / luminescence | TZM-bl | fold resistance | NNRTI-resistant (RT K103N/G190A) | 1.6
O=C(N[C@@H](Cc1ccccc1)C(=O)C(F)(F)N(Cc1ccccc1)S(=O)(=O)c1ccccc1)O[C@H]1CCOC1 | IIIB | p24 | CEM | EC90 | - | 1 µM
COc1ccnc2[nH]cc(C(=O)C(=O)N3C4CCCC3CN(C(=O)c3ccccc3)C4)c12 | PVO | luciferase | TZM-bl | EC99 | - | 41 µM
CC(C)C1=C2[C@H]3CC[C@@H]4[C@@]5(C)CC[C@H](OC(=O)[C@H]6C[C@@H](C(=O)O)C6(C)C)C(C)(C)[C@@H]5CC[C@@]4(C)[C@]3(C)CC[C@@]2([C@@H](O)CNCCNC(=O)c2ccc(Cl)cc2)CC1=O | 92HT599 | p24 / ELISA | MT-2 | EC50 | - | <1 µM
Cc1cc(S(N)(=O)=O)ccc1NC(=O)COc1ccc(Cl)cc1C(=O)c1cccc(C#N)c1 | HXB2 | β-galactosidase | HeLa + HELA CD4+ | fold resistance | RT-K103N L100I | ~1
COc1ccc(S(=O)(=O)N(CC2CCCC2)C[C@@H](O)CN(CCC2CCCCC2)C(=O)O[C@H]2CCOC2)cc1 | IIIB | p24 | CEM | EC90 | - | 0.1 µM
O=C1Nc2ccc(F)c(F)c2[C@@](C#CC2CC2)(C(F)(F)F)N1 | - | - | - | EC90 | RT-L100I | 0.007 µM
O=C(O)c1cc(-n2cccc2)ccc1Cl | IIIB X4 CLADE B | p24 | MT-2 | EC90 | - | 5.85 µM
COc1ccc(S(=O)(=O)N(CC(C)C)CC(O)CC(=O)N2CCN(Cc3cccnc3)C[C@H]2C(=O)NC(C)(C)C)cc1 | IIIB | p24 | CEM | EC90 | - | 1 µM
CC(C)C1=C2[C@H]3CC[C@@H]4[C@@]5(C)CC[C@H](OC(=O)[C@H]6C[C@@H](C(=O)O)C6(C)C)C(C)(C)[C@@H]5CC[C@@]4(C)[C@]3(C)CC[C@@]2([C@@H](O)CNC(=O)C(C)(C)NC(=O)c2cc(C(C)C)[nH]n2)CC1=O | 92HT599 | p24 / ELISA | MT-2 | EC50 | - | <1 µM
CC(=O)N1CCn2c(nc(C(=O)NCc3ccc(F)cc3)c(O)c2=O)C(N(C)C(=O)C(=O)N(C)C)C1 | - | p24 | MT-4 | EC95 | - | <1 µM
Cc1cc(C#N)cc(C(=O)c2cc(Cl)ccc2OCC(=O)Nc2ccc(S(N)(=O)=O)nc2C)c1 | HXB2 | β-galactosidase | HeLa + HELA CD4+ | fold resistance | RT-K103N | ~1
CC(C)C1=C2[C@H]3CC[C@@H]4[C@@]5(C)CC[C@H](OC(=O)[C@H]6C[C@@H](C(=O)O)C6(C)C)C(C)(C)[C@@H]5CC[C@@]4(C)[C@]3(C)CC[C@@]2(CCNCC(C)(CN)NC(=O)c2ccc(Cl)cc2)CC1=O | 92HT599 | p24 / ELISA | MT-2 | EC50 | - | <1 µM
COc1ccnc2[nH]cc(C(=O)C(=O)N3C4CCC3CN(C(=O)c3ccccc3)C4)c12 | 6535 | luciferase | TZM-bl | EC90 | - | 1.4 µM
CC(C)[C@H](NC(=O)OCc1ccccn1)C(=O)N[C@@H](Cc1ccccc1)[C@@H](O)C[C@H](Cc1ccccc1)NC(=O)OCc1cccnc1 | NL4-3 | p24 | MT-4 | EC95 | PR-M46I L63P V82T | 3 µM
CC(C)C1=C2[C@H]3CC[C@@H]4[C@@]5(C)CC[C@H](OC(=O)[C@H]6C[C@@H](C(=O)O)C6(C)C)C(C)(C)[C@@H]5CC[C@@]4(C)[C@]3(C)CC[C@@]2(CC(=O)NC(C)(CN)CNC(=O)c2ccc(Cl)cc2)CC1=O | 92HT599 | p24 / ELISA | MT-2 | EC50 | - | <1 µM
Cc1cc(S(N)(=O)=O)ccc1NC(=O)COc1ccc(Cl)cc1C(=O)c1cc(Cl)cc(C#N)c1 | HXB2 | β-galactosidase | HeLa + HELA CD4+ | fold resistance | RT-G190A | ~1

2 of the rows above, restated:

compound | strain | method | cell line | read-out | mutations | result
CC(C)C1=C2[C@H]3CC[C@@H]4[C@@]5(C)CC[C@H](OC(=O)[C@H]6C[C@@H](C(=O)O)C6(C)C)C(C)(C)[C@@H]5CC[C@@]4(C)[C@]3(C)CC[C@@]2([C@@H](O)CNCc2ccc(Cl)cc2OCCN2CCOCC2)CC1=O | 92HT599 | p24 / ELISA | MT-2 | EC50 | - | <1 µM
CC(C)C1=C2[C@H]3CC[C@@H]4[C@@]5(C)CC[C@H](OC(=O)[C@H]6C[C@@H](C(=O)O)C6(C)C)C(C)(C)[C@@H]5CC[C@@]4(C)[C@]3(C)CC[C@@]2([C@@H](O)CNC(=O)C(C)(C)NC(=O)c2cc(C(C)C)[nH]n2)CC1=O | 92HT599 | p24 / ELISA | MT-2 | EC50 | - | <1 µM